Results of unrelated studies side by side (data: NIAID ChemDB).

Common to all: target-level tests

An empty or dashed field is not shown. Neighbouring rows are from separate reports. Two numbers with a dash give a range or band. ICn: concentration for n% inhibition. Inhibition is in % at the dose shown (toxicity tests: loss of growth or viability).

SMILES | tested at | read-out | target | species | result
CON1C(Nc2ccc3cn[nH]c3c2)=NC(NC(C)C)=NC1NC(C)C | 0.1 µg/mL | inhibition | DNA polymerase | Hepatitis B virus | 52%
Cc1c(OCc2ccccc2)ccc(-c2ccc3cc(-c4nc5cc(C(=O)O)ccc5n4C4CCCCC4)ccc3n2)c1O | 33 µM | inhibition | NS5B polymerase | Hepatitis C virus | 98.24%
O=C(O)c1sc(-c2ccccc2)cc1N(Cc1ccc(Cl)cc1)C(=O)C1CC1 | - | IC50 | NS3 ATPase | Hepatitis C virus | 5–20 µM
CC[C@@H](C=O)NC(=O)[C@@H]1C[C@@H](OCc2ccccc2)CN1C(=O)[C@@H](NC(=O)Nc1ccccc1)C(C)C | - | Ki | NS3 protease | Hepatitis C virus | 1–100 µM
CNC(=O)c1c(-c2ccc(F)cc2)oc2cc(N(Cc3cc(C)on3)S(C)(=O)=O)c(OC(C)C)cc12 | - | IC50 | Nonstructural protein 5B | Hepatitis C virus | ≤0.5 µM
O=C(NCCCc1ccccc1)Nc1cc(-c2ccccc2)sc1C(=O)O | - | IC50 | NS3 ATPase | Hepatitis C virus | 5–20 µM
CCOC(=O)C1CCN(c2nc(Nc3ccc4[nH]ncc4c3)nc(OC)n2)CC1 | 1 µg/mL | inhibition | Nonstructural protein 5B | Hepatitis C virus | 15%
Cc1ccccc1S(=O)(=O)Nc1cc(-c2ccccn2)sc1C(=O)O | - | IC50 | NS3 ATPase | Hepatitis C virus | <5 µM
CNC(=O)c1c(-c2ccc(F)cc2)oc2cc(C(C)(C)NC(C)=O)c(OC)cc12 | - | IC50 | Nonstructural protein 5B | Hepatitis C virus | ≤0.5 µM
O=C(O)c1cc2nc(-c3ccc(F)cc3)cc(-c3ccc(Cl)cc3Cl)n2n1 | - | IC50 | RNA-dependent RNA polymerase | Hepatitis C virus | >10 µM
O=C(O)c1ccc2c(c1)nc(-c1ccc3nc(C(=O)Nc4ccc(Cl)cc4)ccc3c1)n2C1CCCCC1 | 33 µM | inhibition | NS5B polymerase | Hepatitis C virus | 99.45%
O=C(Cc1cccc(Br)c1)Nc1ccsc1-c1nc(C(=O)O)c(O)c(=O)[nH]1 | - | IC50 | HCV polymerase | Hepatitis C virus | <25 µM
COc1nc(Nc2ccc3[nH]ncc3c2)nc(N2CCC(C(N)=O)CC2)n1 | 0.1 µg/mL | inhibition | DNA polymerase | Hepatitis B virus | 48%
O=C(O)c1cnn2c(-c3ccc(Cl)cc3)cc(-c3ccc(F)cc3)nc12 | - | IC50 | RNA-dependent RNA polymerase | Hepatitis C virus | >10 µM
CC[C@@H](C=O)NC(=O)[C@@H]1C[C@@H](OC(=O)Nc2ccc(Cl)c(Cl)c2)CN1C(=O)[C@@H](NC(=O)[C@@H](NC(=O)c1cnccn1)C(C)C)C(C)C | - | Ki | NS3 protease | Hepatitis C virus | 1–100 µM
COc1ccc(-c2ccc(C(N)=O)cc2)c(-c2ccc3cc(-c4nc5cc(C(=O)O)ccc5n4C4CCCCC4)ccc3n2)c1 | 100 µM | inhibition | NS5B polymerase | Hepatitis C virus | 101%
O=C(O)c1nc(-c2ccccc2Br)[nH]c(=O)c1O | - | IC50 | HCV polymerase | Hepatitis C virus | <100 µM
CC[C@@H](C=O)NC(=O)[C@@H]1C[C@@H](OCc2noc(C(C)(C)C)n2)CN1C(=O)[C@@H](NC(=O)[C@@H](NC(=O)c1cnccn1)C(C)C)C(C)C | - | Ki | NS3 protease | Hepatitis C virus | 1–100 µM
COc1nc(NCCc2ccccn2)nc(Nc2ccc3cn[nH]c3c2)n1 | 0.1 µg/mL | inhibition | DNA polymerase | Hepatitis B virus | 27%
COc1ccc(-c2ccccc2F)c(-c2ccc3cc(-c4nc5cc(C(=O)O)ccc5n4C4CCCCC4)ccc3n2)c1 | 33 µM | inhibition | NS5B polymerase | Hepatitis C virus | 102%
Cc1cc(C)n2ncc(-c3nc(C(=O)O)c(O)c(=O)[nH]3)c2n1 | - | IC50 | HCV polymerase | Hepatitis C virus | <100 µM
CC[C@H](NC(=O)[C@H](CC(C)C)NC(=O)[C@@H](NC(=O)[C@@H](NC(=O)c1cnccn1)C(C)C)C(C)C)C(=O)C(=O)N[C@H](C)c1ccccc1 | - | Ki | NS3 protease | Hepatitis C virus | 1–100 µM
O=C(CN1CCC(Cc2ccccc2)CC1)Nc1ccsc1-c1nc(C(=O)O)c(O)c(=O)[nH]1 | - | IC50 | HCV polymerase | Hepatitis C virus | <25 µM
COc1nc(Nc2ccc3[nH]ncc3c2)nc(N2CCN(C(=O)c3cccnc3)CC2)n1 | 0.1 µg/mL | inhibition | DNA polymerase | Hepatitis B virus | 35%
CCN(c1cc2oc(-c3ccc(F)cc3)c(C(=O)NC)c2cc1O)S(C)(=O)=O | - | IC50 | Nonstructural protein 5B | Hepatitis C virus | ≤0.5 µM
O=C(NCc1ccoc1)Nc1cscc1-c1nc(C(=O)O)c(O)c(=O)[nH]1 | - | IC50 | HCV polymerase | Hepatitis C virus | <25 µM
CC[C@@H](C=O)NC(=O)[C@@H]1C[C@@H](OCc2ccccc2)CN1C(=O)[C@@H](NC(=O)c1c[nH]c2ccccc12)C(C)C | - | Ki | NS3 protease | Hepatitis C virus | 1–100 µM
CC1CCC(C(=O)N(c2cc(-c3ccc(Cl)cc3)sc2C(=O)O)C(C)C)CC1 | - | IC50 | NS3 ATPase | Hepatitis C virus | <5 µM
CNC(=O)c1c(-c2ccc(F)cc2)oc2cc(-c3ccc(F)nc3)c(OC(C)C)cc12 | - | IC50 | Nonstructural protein 5B | Hepatitis C virus | ≤0.5 µM
COc1nc(Nc2ccc3[nH]ncc3c2)nc(N2CCOCC2)n1 | 10 µg/mL | inhibition | Nonstructural protein 5B | Hepatitis C virus | 72%
O=C(Cc1ccc(-c2ccccc2)cc1)Nc1ccsc1-c1nc(C(=O)O)c(O)c(=O)[nH]1 | - | IC50 | HCV polymerase | Hepatitis C virus | <25 µM
O=C(O)c1cc2nc(-c3ccc(F)cc3)cc(-c3cccc(Cl)c3)n2n1 | - | IC50 | RNA-dependent RNA polymerase | Hepatitis C virus | >10 µM
O=C(Nc1ccsc1-c1nc(C(=O)O)c(O)c(=O)[nH]1)NS(=O)(=O)c1ccccc1Cl | - | IC50 | HCV polymerase | Hepatitis C virus | <25 µM
CCCC(=O)N(Cc1ccc(C(F)(F)F)cc1)c1cc(-c2ccccc2)sc1C(=O)O | - | IC50 | NS3 ATPase | Hepatitis C virus | 5–20 µM
CC(=O)Nc1ccc(-c2ccc3cc(-c4nc5cc(C(=O)O)ccc5n4C4CCCCC4)ccc3n2)cc1 | 100 µM | inhibition | NS5B polymerase | Hepatitis C virus | 96.82%
c1cncc(COc2cccc(-c3cnc4c(-c5nn[nH]n5)cnn4c3C3CCCCC3)c2)c1 | - | IC50 | RNA-dependent RNA polymerase | Hepatitis C virus | 1–10 µM
CNC(=O)C1CCN(c2nc(Nc3ccc4[nH]ncc4c3)nc(OC)n2)CC1 | 1 µg/mL | inhibition | DNA polymerase | Hepatitis B virus | 32%
CC[C@@H](C=O)NC(=O)[C@@H]1C[C@@H](OCc2ccccc2-c2ccccc2)CN1C(=O)[C@@H](NC(=O)[C@@H](NC(=O)c1cnccn1)C(C)C)C(C)C | - | Ki | NS3 protease | Hepatitis C virus | 1–100 µM
O=C(O)c1nc(-c2ccccc2NS(=O)(=O)c2ccc(O)cc2)[nH]c(=O)c1O | - | IC50 | HCV polymerase | Hepatitis C virus | <100 µM
O=C(O)c1sc(-c2ccccc2)cc1N(Cc1ccccc1)C(=O)C1CC1 | - | IC50 | NS3 ATPase | Hepatitis C virus | <5 µM
CNC1N=C(OC)N=C(Nc2ccc3cn[nH]c3c2)N1CN | 0.1 µg/mL | inhibition | Nonstructural protein 5B | Hepatitis C virus | 19%
CNC(=O)c1c(-c2ccc(F)cc2)oc2cc(-c3noc(C)n3)c(OC(C)C)cc12 | - | IC50 | Nonstructural protein 5B | Hepatitis C virus | ≤0.5 µM
CC[C@@H](C=O)NC(=O)[C@@H]1C[C@@H](OCc2ccccc2)CN1C(=O)[C@@H](NC(=O)c1c(C)cc(C)cc1C)C(C)C | - | Ki | NS3 protease | Hepatitis C virus | >100 µM
CC(C)N(C(=O)C1CCC(Cl)CC1)c1cc(-c2ccccc2)sc1C(=O)O | - | IC50 | NS3 ATPase | Hepatitis C virus | <5 µM
CNC(=O)c1c(-c2ccc(F)cc2)oc2cc(-c3cccc(S(C)(=O)=O)c3)c(OC(C)C)cc12 | - | IC50 | Nonstructural protein 5B | Hepatitis C virus | ≤0.5 µM
CC[C@@H](C=O)NC(=O)[C@H](CC(C)C)NC(=O)[C@@H](NC(=O)[C@@H](NC(=O)c1cccnc1)C(C)C)C(C)C | - | Ki | NS3 protease | Hepatitis C virus | 1–100 µM
COc1nc(Nc2ccc3[nH]ncc3c2)nc(N2CCN(C)CC2)n1 | 0.1 µg/mL | inhibition | DNA polymerase | Hepatitis B virus | 42%
CC(=O)c1ccc(-c2cc(NS(=O)(=O)c3ccc(C)cc3)c(C(=O)O)s2)cc1 | - | IC50 | NS3 ATPase | Hepatitis C virus | <5 µM
O=C(O)c1cnn2c(-c3ccccc3)cc(-c3ccc(Cl)cc3)nc12 | - | IC50 | RNA-dependent RNA polymerase | Hepatitis C virus | >10 µM
CNC(=O)c1ccc(-c2ccc(Cl)cc2)c(-c2ccc3cc(-c4nc5cc(C(=O)O)ccc5n4C4CCCCC4)ccc3n2)c1 | 100 µM | inhibition | NS5B polymerase | Hepatitis C virus | 101%

Repeating the final 4 entries:

SMILES	tested at	read-out	target	species	result
COc1nc(Nc2ccc3[nH]ncc3c2)nc(N2CCN(C)CC2)n1	0.1 µg/mL	inhibition	DNA polymerase	Hepatitis B virus	42%
CC(=O)c1ccc(-c2cc(NS(=O)(=O)c3ccc(C)cc3)c(C(=O)O)s2)cc1	-	IC50	NS3 ATPase	Hepatitis C virus	<5 µM
O=C(O)c1cnn2c(-c3ccccc3)cc(-c3ccc(Cl)cc3)nc12	-	IC50	RNA-dependent RNA polymerase	Hepatitis C virus	>10 µM
CNC(=O)c1ccc(-c2ccc(Cl)cc2)c(-c2ccc3cc(-c4nc5cc(C(=O)O)ccc5n4C4CCCCC4)ccc3n2)c1	100 µM	inhibition	NS5B polymerase	Hepatitis C virus	101%